Laboratory results: US20210309984

Biological target: MUC5AC within type II porcine stomach mucin extract

B1: Full-length ChiA minus the N-terminal periplasmic signal sequence (ChiA-FL), Legionella pneumophila 130b (protein)
chain: NTSLKPSIAQPTACVNSLFTATGNQHWKSIVLKLTNNCNQAVDFQNSTVSFQTTAALNTSFWGDFSPLSYPDNALNISSQPQSGGNYLATLNLHFPSYPGANSKLPVGSSISIKYGAVTDSHIEGTANVYLSTTVESGSIQLINAAAKPTNVSQGYALVHVTMNGQSVSDVQLPWETSKTLSGFAAGNYAISAETVTDSNGNLYLGQANPSMVNVIANQTTSSTINYARVQETGKIKIHVQNLPGELSNYNENPTVLITQSQSGNSRSQHAVWGNTTTVAELKEGSSYQFSTPAIQYNDYNCWPTFTPSSLVASAANVPTTNLTYQCAQIVKDNVTINVSGAPSSLASLKIILTPNDGSQTVEQTIDLANGVGSSAISLTDGVIYTLSSEGVPGYTVQFSPQPLTATENATVNITLSPVTAAKGRIIGYVPGWKTPPAAQELASAGYTHVMIAFGVFSTNTPGVIVPAFETITKEYIQSLHQAGIKVILSLGGALTSIPNTTVDFHQVLVASSSPEAFKQTFINSLKELISQYGFDGFDTDIEHGINASGSFSQPQGDIAVLASIINTMYSQNSSLLITLTPQVANIAATSGFDQTWGNYASLIMQTHQSLAWVGIQLYNTGCAFGIDQVCYGPTPTDTPDFSVAMATDLLENWPATVNGRPTGFQPYISYLRPSQIVIGYPSPNASGGSDGSPVTPTTTIKRAIQCLKTAIAGNTSCGVYVPPRAYGNIGGVFNWEVTYDKNNQFKFAKELKNCAINGVCE
immunoblot of MUC5AC degradation in type II mucin extract: resulted in the processing of MUC5AC into a new ˜70 kDa fragment

B2: ChiA C-domain (ChiA-CTD: residues 419-762), wild-type (protein)
chain: VTAAKGRIIGYVPGWKTPPAAQELASAGYTHVMIAFGVFSTNTPGVIVPAFETITKEYIQSLHQAGIKVILSLGGALTSIPNTTVDFHQVLVASSSPEAFKQTFINSLKELISQYGFDGFDTDIEHGINASGSFSQPQGDIAVLASIINTMYSQNSSLLITLTPQVANIAATSGFDQTWGNYASLIMQTHQSLAWVGIQLYNTGCAFGIDQVCYGPTPTDTPDFSVAMATDLLENWPATVNGRPTGFQPYISYLRPSQIVIGYPSPNASGGSDGSPVTPTTTIKRAIQCLKTAIAGNTSCGVYVPPRAYGNIGGVFNWEVTYDKNNQFKFAKELKNCAINGVCE
immunoblot of MUC5AC degradation in type II mucin extract: resulted in the processing of MUC5AC into a new ˜70 kDa fragment
